Drawing on PubChem BioAssay AID720542 (National Center for Advancing Translational Sciences (NCATS), 2013), this text covers activity change, negative = inhibition for two compounds.

The entries are a selection whose mix differs from that of the whole data set. Calls of active or inactive are those of the source. Calls come from the whole dose curve; as a rule, active = well fitted inhibition curve with a large enough effect; inconclusive = small, poorly fitted or top-dose-only effect; inactive = no such curve, though single readings can be large or run the other way.

The experiment concerns Plasmodium falciparum AMA1 (3D7) - RON2 peptide interaction. The experiment is described as follows: qHTS for Inhibitors of AMA1-RON; Towards Development of Antimalarial Drug Lead: Primary Screen.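 Note: 0% = vehicle wells and -100% = peptide control; nearly all actives have a fitted effect of over 45% in size.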 The settings on record: AlphaScreen AMA1-biotinylated RON2 peptide binding; at 58.2 µM (top of the series).
For `CN(C)CCOC(=O)C(O)(c1ccccc1)C1CCCC1` (configuration not stated), the activity change, negative = inhibition is inactive: 2.29%.
For `O=C(OC1CN2CCC1CC2)C12CC3CC(CC(C3)C1)C2` (configuration not stated), the activity change, negative = inhibition was inactive: 4.91%.
